# Mutational interference map of HIV-1 RNA dimerization

Values reported by Ye et al. 2022 (doi:10.1038/s41594-022-00746-2).

Sequence of the HIV-1 NL4-3 5' RNA, positions 1 to 437, as numbered in the source:
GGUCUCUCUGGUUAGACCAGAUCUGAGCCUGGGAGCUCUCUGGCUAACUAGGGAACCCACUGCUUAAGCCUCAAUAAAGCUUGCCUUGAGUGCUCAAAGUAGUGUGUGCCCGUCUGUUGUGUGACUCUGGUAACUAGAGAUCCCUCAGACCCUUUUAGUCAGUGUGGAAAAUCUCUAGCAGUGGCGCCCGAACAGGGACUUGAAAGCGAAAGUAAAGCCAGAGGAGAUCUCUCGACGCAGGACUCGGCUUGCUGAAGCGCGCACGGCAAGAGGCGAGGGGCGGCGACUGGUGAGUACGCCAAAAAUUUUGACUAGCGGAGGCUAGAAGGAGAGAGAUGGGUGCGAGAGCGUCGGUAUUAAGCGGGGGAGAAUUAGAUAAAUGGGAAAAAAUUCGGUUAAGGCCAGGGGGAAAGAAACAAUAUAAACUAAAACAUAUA

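Randomly mutated transcripts starting with one, two or three G (1G, 2G, 3G), capped or uncapped, were folded for 30 min at 37 °C. Monomer and dimer bands were cut from native gels after folding in high salt (300 mM KCl, 5 mM MgCl2) or low salt (40 mM KCl, 0.1 mM MgCl2). Mutation frequencies in the two bands give Kdimer.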

Scale: median log2 Kdimer over the changes at a position; positive = changes inhibit dimerization, negative = changes enhance it. One numbering serves 1G, 2G and 3G. A position is written with its base.

position | domain | 1G capped high-salt | 1G capped low-salt
A21 | TAR | 0.13 | -0.06
U22 | TAR | 0.22 | -0.17
C23 | TAR | -0.57 | -0.53
U24 | TAR | -0.03 | -0.32
G25 | TAR | -0.34 | -0.61
A26 | TAR | 0.19 | 0.12
G27 | TAR | -0.72 | -0.86
C28 | TAR | -0.06 | -0.59
C29 | TAR | -0.04 | -0.19
U30 | TAR | 0.09 | -0.25
G31 | TAR | -0.25 | -0.21
G32 | TAR | -0.12 | -0.08
G33 | TAR | 0.03 | -0.44
A34 | TAR | 0.08 | -0.02
G35 | TAR | 0.03 | -0.55
C36 | TAR | -0.15 | -0.26
U37 | TAR | 0.00 | -0.22
C38 | TAR | -0.01 | -0.21
U39 | TAR | 0.24 | -0.02
C40 | TAR | -0.32 | -0.02
U41 | TAR | -0.24 | -0.54
G42 | TAR | -0.58 | -0.43
G43 | TAR | -0.18 | -0.22
C44 | TAR | -0.19 | -0.15
U45 | TAR | -0.10 | -0.04
A46 | TAR | -0.32 | -0.28
A47 | TAR | -0.05 | -0.20
C48 | TAR | -0.31 | -0.50
U49 | TAR | -0.12 | 0.01
A50 | TAR | 0.10 | -0.13
G51 | TAR | -0.02 | -0.06
G52 | TAR | 0.19 | 0.08
G53 | TAR | -0.19 | 0.00
A54 | TAR | -0.52 | -0.14
A55 | TAR | 0.17 | 0.17
C56 | TAR | 0.16 | -0.03
C57 | TAR | 0.15 | -0.15
C58 | PolyA | 0.45 | 0.33
A59 | PolyA | 0.48 | 0.31
C60 | PolyA | 0.61 | 0.24
U61 | PolyA | 0.44 | 0.19
G62 | PolyA | 0.27 | 0.20
C63 | PolyA | 0.49 | 0.21
U64 | PolyA | 0.40 | 0.16
U65 | PolyA | 0.19 | 0.16
A66 | PolyA | -0.26 | -0.08
A67 | PolyA | 0.12 | 0.00
G68 | PolyA | 0.89 | 0.22
C69 | PolyA | 0.25 | -0.23
C70 | PolyA | 0.25 | 0.10
U71 | PolyA | 0.48 | 0.22
C72 | PolyA | 0.18 | -0.16
A73 | PolyA | 0.18 | 0.13
A74 | PolyA | -0.10 | 0.08
U75 | PolyA | 0.01 | -0.09
A76 | PolyA | 0.15 | 0.04
A77 | PolyA | -0.05 | 0.11
A78 | PolyA | -0.15 | 0.05